Laboratory results: paper PMC3458112
Construct, isoform or probe ends are uncertain for at least one entry. For part of these data: Where a protein sequence is shown, tags need not be part of it.

Chains of the proteins cited; added tags and fusions are not shown. Residues count along the entry.
UniProt Q96724, 748-1032: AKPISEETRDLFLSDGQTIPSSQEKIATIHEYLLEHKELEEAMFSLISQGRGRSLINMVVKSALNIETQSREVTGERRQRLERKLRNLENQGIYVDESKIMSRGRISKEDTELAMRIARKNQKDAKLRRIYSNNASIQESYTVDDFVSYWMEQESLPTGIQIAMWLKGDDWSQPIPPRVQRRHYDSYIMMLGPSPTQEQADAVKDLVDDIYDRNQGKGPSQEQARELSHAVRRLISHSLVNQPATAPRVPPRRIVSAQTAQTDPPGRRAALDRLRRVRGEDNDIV
UniProt P61825, 756-1012: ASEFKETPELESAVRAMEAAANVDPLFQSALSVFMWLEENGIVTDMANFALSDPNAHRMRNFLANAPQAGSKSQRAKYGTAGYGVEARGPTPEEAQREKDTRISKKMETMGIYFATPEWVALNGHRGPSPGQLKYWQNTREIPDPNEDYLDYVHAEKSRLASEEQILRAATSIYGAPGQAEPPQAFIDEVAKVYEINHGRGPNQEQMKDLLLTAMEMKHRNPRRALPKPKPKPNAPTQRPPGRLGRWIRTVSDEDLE

What was measured:
Experiment in all cases: EMSA
[1] = molecular target: DXV VP3 (Drosophila X virus) (UniProt Q96724); conditions: VP3 70-1120 nM; 2-nt deoxy (dTdT) 3' overhangs; siRNA (2 nM): 10 mM Tris-HCl pH 8, 10 mM glycine, 2 mM DTT; genomic dsRNA (7.5 nM): 50 mM Tris-HCl pH 8, 150 mM NaCl, 0.5 ug/ul BSA; 30 min, room temperature, 20 ul; recombinant protein; protein details: 6xHis (pFastBacHtb); label: 32P 5' (T4 PNK)
[2] = molecular target: IBDV VP3 (Infectious bursal disease virus) (UniProt P61825); conditions: VP3 80-1200 nM, RNA 2 nM; 2-nt deoxy (dTdT) 3' overhangs; siRNA (2 nM): 10 mM Tris-HCl pH 8, 10 mM glycine, 2 mM DTT; genomic dsRNA (7.5 nM): 50 mM Tris-HCl pH 8, 150 mM NaCl, 0.5 ug/ul BSA; 30 min, room temperature, 20 ul; recombinant protein; protein details: 6xHis (pFastBac-type); label: 32P 5' (T4 PNK)
IPNV VP3 = molecular target: T1, IPNV VP3 (UniProt M9VR92); conditions: VP3 80-1280 nM; 2-nt deoxy (dTdT) 3' overhangs; siRNA (2 nM): 10 mM Tris-HCl pH 8, 10 mM glycine, 2 mM DTT; genomic dsRNA (7.5 nM): 50 mM Tris-HCl pH 8, 150 mM NaCl, 0.5 ug/ul BSA; 30 min, room temperature, 20 ul; recombinant protein; protein details: 6xHis (pFastBacHtb); label: 32P 5' (T4 PNK)
T1 sequence (looked up, limits assumed): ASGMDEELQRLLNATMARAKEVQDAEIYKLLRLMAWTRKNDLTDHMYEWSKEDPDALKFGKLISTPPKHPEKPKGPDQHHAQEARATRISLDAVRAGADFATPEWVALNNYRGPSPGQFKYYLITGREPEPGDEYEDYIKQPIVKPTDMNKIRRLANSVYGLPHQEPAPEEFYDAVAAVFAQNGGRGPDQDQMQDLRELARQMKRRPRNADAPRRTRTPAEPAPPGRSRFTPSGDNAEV

Measured: binding result

CUUACGCGAGUCUUCGATT / UCGAAGUACUCAGCGUAAGTT [21-nt ds-siRNA]
binds: all assays above
